# PubChem BioAssay AID504761 | Drosophila RNAi Screening Center | 2011
# Test: 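Insect host genes that dengue virus relies on to spread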 (primary screen)
# System: D.Mel-2 cells from Drosophila
# Knock-down reagent: long dsRNA against Drosophila genes
# Challenge: infection with dengue virus type 2; dose and infection time not stated
# Detection: 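Cells stained for dengue envelope protein and imaged; percent of infected cells per well on duplicate plates, ranked by infection, with stained nuclei counted for cell number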
# Reading the numbers: infection score: higher = more virus-infected cells; cell count: higher = more cells in the well
# Active means: 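Low infection ranks in the two replicates (chance level up to 0.065) followed by a retest with a 1.5-fold or larger significant decrease, p below 0.05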
# Meaning of the calls: active = confirmed: knock-down lowers infection; inactive = not picked or not confirmed
# The screen tested about 22,000 reagents; shown is an unselected part of those with a known target gene and a result. Over the whole deposit, 116 (0.52%) were called active. 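Calls depend on retest data that are not deposited; infection was ranked per plate without normalising between plates; the unit of the infection score is not given.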 Raw values are not corrected between plates. Unmarked entries are inactive. Reagent sequences are not shown. Not given: the amount of reagent, the time to read-out.
Target gene,amplicon,"infection score, replicate 1","infection score, replicate 2","cell count, replicate 1","cell count, replicate 2"
Letm1,DRSC04476,20.9,15.8,4323,4514
CG9890,DRSC04590,4.38,14.4,2717,5462
CG9890,DRSC25594,19.6,22.7,6777,6136
Ibf1 (Insulator binding factor 1),DRSC16419,5.53,7.36,6635,6645
CG33543,DRSC00384,32.7,30.1,5620,6571
CG33543,DRSC00385,10.6,14.2,6483,6719
Osi8 (Osiris 8),DRSC12277,4.75,24,6257,6141
Osi8 (Osiris 8),DRSC27462,18.1,12.8,6431,6514
Hey (Hairy/E(spl)-related with YRPW motif),DRSC23030,2.26,4.61,6198,6707
CG7025,DRSC03002,3.83,6.53,6190,6588
stac (staccato),DRSC13693,0.26,0.27,6154,6611
stac (staccato),DRSC14392,3.57,2.95,5798,6228
stac (staccato),DRSC22197,3.15,1.89,6499,6132
CG31388,DRSC15254,4.28,3.35,6513,6305
CG2076,DRSC19832,10.6,20.8,6236,6440
CG2076,DRSC27047,12.6,8.28,6219,6025
Rh6 (Rhodopsin 6),DRSC16823,4.89,29.7,6518,5615
Rh6 (Rhodopsin 6),DRSC26166,12.1,5.73,5336,6688
aqz (aaquetzalli),DRSC16570,2.13,4.07,6286,6291
aqz (aaquetzalli),DRSC25042,7.1,3.6,6872,6741
CG9826,DRSC04570,8.75,8.5,6444,6954
CG14564,DRSC11725,7.96,28.7,6696,5855
CG14564,DRSC22388,2.43,2.5,6142,6370

Targets listed so far whose gene name begins with O or o (2):
Target gene,amplicon,"infection score, replicate 1","infection score, replicate 2","cell count, replicate 1","cell count, replicate 2"
Osi8 (Osiris 8),DRSC12277,4.75,24,6257,6141
Osi8 (Osiris 8),DRSC27462,18.1,12.8,6431,6514
